Reference: patent publication US11613538B2, “Method of inhibiting or reducing a viral infection” (PTC Therapeutics, Inc., priority 2009, dated 2023)

Test system: HCV replicons
Test: Selection of resistant HCV replicons
Conditions: exposure of replicon cells for up to four months; in words

COc1ccc([C@H]2c3[nH]c4ccc(Cl)cc4c3CCN2C(=O)Oc2ccc(Cl)cc2)cc1 (racemic) [Compound #10]
Attempts to generate resistant HCV replicons: unsuccessful
